The values below are quoted from earlier work in PMC7033585.

By UniProt entry, the sequences of proteins in these tests, tags left out. Where a name states a change or a piece, a line headed by the entry shows the natural chain unless it says otherwise.
UniProt H9T8G7: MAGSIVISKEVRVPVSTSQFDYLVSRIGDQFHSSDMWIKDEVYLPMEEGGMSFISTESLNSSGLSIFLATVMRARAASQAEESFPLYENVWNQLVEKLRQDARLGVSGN

By Kd is commonly meant a measure of binding affinity in units of concentration.

The target in this series is CdiIIIBp1026b (Burkholderia pseudomallei) (UniProt H9T8G7). The note with it: cited from earlier work.

“CdiA-CTIIBp1026b CT (from UniProt H9T8G4)”: the Kd was 21.1 nM.
